Measured values from several laboratories, pooled; numbers as filed in NIAID ChemDB.

Shared fields: tests in culture; species: Rhinovirus; read-out: EC50

ECn is the concentration giving n% inhibition of infection, replication or growth. Rows are shuffled and stem from different studies.

CN(C)c1nc(C(F)(F)F)nc2c1ncn2Cc1ccc(Cl)c(N)c1 ; strain or isolate: Serotype 13 ; cell line: M-HELA ; method: plaque count ; result: >8 µM
CSc1nsc(-c2ccc(OCCOc3ccc(C#N)cc3)cc2)c1C#N ; strain or isolate: Serotype 9 (group B) ; cell line: HELA-OHIO ; method: cytopathic effect ; result: >2 µM
CCO/N=C/c1ccc(OCCC2CCN(c3ccc(Cl)nn3)CC2)cc1 ; strain or isolate: 363 (ICAM-1 receptor group 32) ; cell line: KB ; method: neutral red ; result: 1.031 µM
Cc1cc(Cn2cnc3c(N(C)C)nc(C(F)(F)F)nc32)ccc1Cl ; strain or isolate: Serotype 3 ; cell line: M-HELA ; method: plaque count ; result: >8 µM
Cc1c(-c2ccccc2)n(-c2cccc(F)c2)c2ccc(C(C)C)cc2c1=O ; strain or isolate: 39/209 ; cell line: HELA-OHIO ; method: cytopathic effect ; result: 0.012 µg/mL
CSc1nsc(-c2ccc(OCCCCOc3ccc([N+](=O)[O-])cc3)cc2)c1C#N ; strain or isolate: Serotype 42 (group A) ; cell line: HELA-OHIO ; method: cytopathic effect ; result: >0.5 µM
COc1ccc(-c2snc(SC)c2C#N)cc1 ; strain or isolate: Serotype 51 (group B) ; cell line: HELA-OHIO ; method: cytopathic effect ; result: >12 µM
Cc1ccccc1Cn1cnc2c(N(C)C)nc(C(F)(F)F)nc21 ; strain or isolate: Serotype 19 ; cell line: M-HELA ; method: plaque count ; result: >8 µM
Cc1cc(CCCOc2c(C)cc(-c3noc(C(F)(F)F)n3)cc2C)on1 ; strain or isolate: Isolate 39 ; cell line: OHIO HELA-I ; method: cytopathic effect / visual reading ; result: >10 µg/mL
CSc1nsc(-c2ccc(OC(C)(C)C)cc2)c1C#N ; strain or isolate: Serotype 51 (group B) ; cell line: HELA-OHIO ; method: cytopathic effect ; result: >40 µM
CCn1c2c(c(=O)c3cc(C(C)C)ccc31)Cc1ccccc1-2 ; strain or isolate: 39/209 ; cell line: HELA-OHIO ; method: cytopathic effect ; result: 1.7 µg/mL
CSc1nsc(-c2ccc(OCCOc3ccccc3)cc2)c1C#N ; strain or isolate: Serotype 45 (group A) ; cell line: HELA-OHIO ; method: cytopathic effect ; result: >20 µM
Cc1ccc(Cn2cnc3c(N(C)C)nc(C(F)(F)F)nc32)c(C)c1 ; strain or isolate: Serotype 19 ; cell line: M-HELA ; method: plaque count ; result: >8 µM
CSc1nsc(-c2ccc(OCCCOc3ccc(C#N)cc3)cc2)c1C#N ; strain or isolate: Serotype 85 (group B) ; cell line: HELA-OHIO ; method: cytopathic effect ; result: >2 µM
Cc1c(-c2ccccc2)n(-c2ccc(F)cc2)c2ccc(C(C)C)cc2c1=O ; strain or isolate: 32/363 ; cell line: HELA-OHIO ; method: cytopathic effect ; result: 0.077 µg/mL
Cc1cc(Cl)ccc1Cn1cnc2c(N(C)C)nc(C(F)(F)F)nc21 ; strain or isolate: Serotype 30 ; cell line: M-HELA ; method: plaque count ; result: >8 µM
CSc1nsc(-c2ccc(OCc3ccccc3)cc2)c1C#N ; strain or isolate: Serotype 63 (group B) ; cell line: HELA-OHIO ; method: cytopathic effect ; result: 10 µM
O=[N+]([O-])c1ccc(Cn2cnc3c(Nc4cccc(F)c4)nc(C(F)(F)F)nc32)cc1 ; strain or isolate: Serotype 2 ; cell line: M-HELA ; method: plaque count ; result: 16.4 µM
CSc1nsc(-c2ccc(OCCOc3ccc([N+](=O)[O-])cc3)cc2)c1C#N ; strain or isolate: Serotype 15 (group B) ; cell line: HELA-OHIO ; method: cytopathic effect ; result: >2 µM
Cc1cc(CCCCCOc2c(Cl)cc(C3=NCCO3)cc2Cl)on1 ; strain or isolate: TYPE 31 ; cell line: HeLa ; method: plaque count ; result: 0.28 µg/mL
Fc1cccc(Cn2cnc3c(Nc4cccc(F)c4)nc(C(F)(F)F)nc32)c1 ; strain or isolate: Serotype 11 ; cell line: M-HELA ; method: plaque count ; result: 1.2 µM
CN(C)c1nc(C(F)(F)F)nc2c1ncn2Cc1ccc([N+](=O)[O-])cc1 ; strain or isolate: TYPE 1B ; cell line: M-HELA ; method: plaque count ; result: 0.07 µM
CSc1nsc(-c2ccc(OS(=O)(=O)c3ccc(C)cc3)cc2)c1C#N ; strain or isolate: Serotype 70 (group A) ; cell line: HELA-OHIO ; method: cytopathic effect ; result: >25 µM
CN(C)c1nc(C(F)(F)F)nc2c1ncn2Cc1cccc(F)c1 ; strain or isolate: Serotype 8 ; cell line: M-HELA ; method: plaque count ; result: >8 µM
CSc1nsc(-c2ccc(OCCCOc3ccc([N+](=O)[O-])cc3)cc2)c1C#N ; strain or isolate: Serotype 41 (group B) ; cell line: HELA-OHIO ; method: cytopathic effect ; result: >1 µM

For reference, 2 entries again:

SMILES	strain or isolate	cell line	method	result
CSc1nsc(-c2ccc(OCCOc3ccc(C#N)cc3)cc2)c1C#N	Serotype 9 (group B)	HELA-OHIO	cytopathic effect	>2 µM
CSc1nsc(-c2ccc(OS(=O)(=O)c3ccc(C)cc3)cc2)c1C#N	Serotype 70 (group A)	HELA-OHIO	cytopathic effect	>25 µM